Results of unrelated studies side by side (data: NIAID ChemDB).

Shared fields: whole-cell or culture tests; species: Hepatitis C virus; measure: EC50

ECn is the concentration giving n% inhibition of infection, replication or growth. Neighbouring rows are from separate reports. Blank or dashed fields: not listed here.

{"structure": "O=C(NCc1ccc(F)cc1)c1nc2ccccc2c(=O)n1O", "cell line": "Ava5", "method": "replicon", "strain": "1b", "value": "54.4 µM"}
{"structure": "CNC(=O)c1c(-c2ccc(F)cc2)oc2cc(N(C)S(C)(=O)=O)c(OCc3cccc(C#N)c3)cc12", "cell line": "Huh7", "method": "replicon", "value": "<1 µM"}
{"structure": "O=c1ccoc2cc(-c3ccccc3)c(OCc3cccc([N+](=O)[O-])c3)c(O)c12", "cell line": "Huh 5-2", "method": "luciferase", "strain": "genotype 1", "value": "14 µM"}
{"structure": "CNC(=O)c1c(-c2ccc(F)cc2)oc2cc(NC(N)=O)c(OC(C)C)cc12", "cell line": "Huh7", "method": "replicon", "value": "<10 µM"}
{"structure": "COC(=O)/C=C1\\S/C(=N/N=C/C2CCCCC2)NC1=O", "cell line": "Huh 5-2", "method": "luciferase / luminescence", "strain": "1b Con1 (replicon)", "value": "16.5 µM"}
{"structure": "C#C[C@]1(CO)O[C@@H](n2ccc(=O)[nH]c2=O)[C@H](O)[C@@H]1O", "cell line": "Huh7", "method": "replicon", "value": ">20 µM"}
{"structure": "OCC1CCC(c2ccc3ncnc(Nc4ccc(C5CCOCC5)cc4)c3c2)O1", "cell line": "Huh7.5+J6/JFH-1", "strain": "2a", "value": "1.2 µM"}
{"structure": "COC(=O)/C=C1\\S/C(=N/N=C/c2cc(OC)c(O)c(OC)c2)NC1=O", "cell line": "Huh 5-2", "method": "luciferase / luminescence", "strain": "1b Con1 (replicon)", "value": "22.2 µM"}
{"structure": "Fc1ccccc1-c1nc2ccn(Cc3ccc(-c4ccc(C(F)(F)F)cc4C(F)(F)F)nn3)cc-2n1", "cell line": "HeLa (clone SL3)", "method": "replicon", "strain": "1b", "value": "17.1 µM"}
{"structure": "COC(=O)/C=C1\\S/C(=N/N=C/c2cc([N+](=O)[O-])ccc2O)NC1=O", "cell line": "Huh 5-2", "method": "luciferase / luminescence", "strain": "1b Con1 (replicon)", "value": "1.94 µM"}
{"structure": "Cc1ccc(-c2cc(C[n+]3cc4[nH]c(-c5cccc(F)c5F)nc4cn3)on2)cc1", "cell line": "Huh-luc/neo-ET", "method": "replicon", "strain": "Genotype 1A", "value": "0.106 µM"}
{"structure": "O=C(NCc1ccccc1Cl)c1nc2ccccc2c(=O)n1O", "cell line": "Ava5", "method": "replicon", "strain": "1b", "value": "36.3 µM"}
{"structure": "CB1OC[C@@H](C)C1NC(=O)[C@@H]1C[C@@H]2CN1C(=O)[C@H](C(C)(C)C)NC(=O)OCC(C)(C)CCCCc1cccc3c1CN(C3)C(=O)O2", "setting": "genotype 1b", "method": "replicon", "value": "30 µM"}
{"structure": "COc1ccc(-c2cc(C[n+]3cc4[nH]c(-c5cccc(F)c5F)nc4cn3)on2)cc1", "cell line": "Huh-luc/neo-ET", "method": "replicon", "strain": "Genotype 1A", "value": "0.328 µM"}
{"structure": "CNC(=O)c1c(-c2ccc(F)cc2)oc2cc(NCC3CCCO3)c(OC(C)C)cc12", "cell line": "Huh7", "method": "replicon", "value": "<10 µM"}
{"structure": "N#C[C@]1(CO)O[C@@H](n2ccc(N)nc2=O)[C@H](O)[C@@H]1O", "cell line": "Huh7", "method": "replicon", "value": "<20 µM"}
{"structure": "C[C@@]1(F)[C@H](O)[C@@H](CO)O[C@@]1(CN)n1ccc(=O)[nH]c1=O", "cell line": "Huh7", "method": "replicon", "strain": "1a", "value": ">89 µM"}
{"structure": "CNC(=O)c1c(-c2ccc(F)cc2)oc2cc(N(C)S(C)(=O)=O)c(OCC(=O)c3ccc(F)cc3)cc12", "cell line": "Huh7", "method": "replicon", "value": "<1 µM"}
{"structure": "Fc1cccc(-c2nc3cnn(Cc4cn(-c5ccc(C(F)(F)F)cc5C(F)(F)F)cn4)cc-3n2)c1F", "cell line": "Huh-luc/neo-ET", "method": "replicon", "strain": "genotype 1b", "value": "7.47 µM"}
{"structure": "CC[C@]1(CO)O[C@@H](n2ccc(N)nc2=O)[C@H](O)[C@@H]1O", "cell line": "Huh7", "method": "replicon", "value": ">20 µM"}
{"structure": "CNC(=O)c1c(-c2ccc(F)cc2)oc2cc(C3CCCN3S(C)(=O)=O)c(OC)cc12", "cell line": "Huh7", "method": "replicon", "value": "<1 µM"}
{"structure": "O=c1ccoc2cc(-c3ccccc3)c(OCc3cccc(Br)c3)c(O)c12", "cell line": "Huh 5-2", "method": "luciferase", "strain": "genotype 1", "value": "18 µM"}
{"structure": "[N-]=[N+]=N[C@]1(CO)O[C@@H](n2ccc(=O)[nH]c2=O)[C@H](O)[C@@H]1O", "cell line": "Huh7", "method": "replicon", "value": ">20 µM"}
{"structure": "COC(=O)/C=C1\\S/C(=N/N=C/c2c(F)cccc2Cl)NC1=O", "cell line": "Huh 5-2", "method": "luciferase / luminescence", "strain": "1b Con1 (replicon)", "value": "3.26 µM"}
{"structure": "C[C@H]1COB(O)C1NC(=O)[C@@H]1C[C@@H]2CN1C(=O)[C@H](C(C)(C)C)NC(=O)OCC(C)(C)CCCCc1cccc3c1CN(C3)C(=O)O2", "setting": "genotype 1b", "method": "replicon", "value": "1.7 µM"}
{"structure": "CC[C@@H]1C[C@]1(NC(=O)C1CC(Oc2cc(-c3csc(NC(C)C)n3)nc3c(Cl)c(OCCN4CCOCC4)ccc23)CN1C(=O)[C@@H](NC(=O)C1C[C@@H]2C[C@@H]2C1)C(C)(C)C)C(=O)O", "cell line": "Huh-luc", "method": "replicon", "strain": "1b", "value": "0.002 µM"}
{"structure": "O=C(N[C@@H](C(=O)N1CCC[C@H]1C(=O)Nc1nc(-c2ccccc2)cs1)c1ccccc1)C1CC1", "cell line": "Con-1", "strain": "genotype 1b", "value": "0.0041 µM"}
{"structure": "CNC(=O)c1c(-c2ccc(F)cc2)oc2cc(N3CCOCC3)c(OCc3ccc(C(=O)OC)cc3)cc12", "cell line": "Huh7", "method": "replicon", "value": "<10 µM"}
{"structure": "COC(=O)/C=C1\\S/C(=N/N=C/c2ccc(OC)cc2)NC1=O", "cell line": "Huh 5-2", "method": "luciferase / luminescence", "strain": "1b Con1 (replicon)", "value": "14.7 µM"}
{"structure": "CNC(=O)c1c(-c2ccc(F)cc2)oc2cc(N(CC(C)=O)S(C)(=O)=O)c(O)cc12", "cell line": "Huh7", "method": "replicon", "value": "<10 µM"}
{"structure": "CCCOc1ccc(-c2cc(C(C(=O)OCCCO)[n+]3cc4[nH]c(-c5cccc(F)c5F)nc4cn3)on2)c(C(F)(F)F)c1", "cell line": "Huh-luc/neo-ET", "method": "replicon", "strain": "Genotype 1A", "value": "0.02371 µM"}
{"structure": "C=C[C@]1(CO)O[C@@H](n2ccc(=O)[nH]c2=O)[C@H](O)[C@@H]1O", "cell line": "Huh7", "method": "replicon", "value": "20 µM"}
{"structure": "COc1ccc(CNC(=O)c2nc3ccccc3c(=O)n2O)cc1", "cell line": "Ava5", "method": "replicon", "strain": "1b", "value": "32.9 µM"}
{"structure": "COc1c(-c2cccc3ccccc23)cnn([C@@H]2C[C@H]3C(=O)N[C@]4(C(=O)NS(=O)(=O)C5CC5)CC4/C=C\\CCCCCC[C@H](NC(=O)OC4CCCC4)C(=O)N3C2)c1=O", "method": "replicon", "strain": "1b", "value": "0.0004 µM"}
{"structure": "O=C(NCc1ccccc1)c1nc2ccccc2c(=O)n1O", "cell line": "Ava5", "method": "replicon", "strain": "1b", "value": "59.4 µM"}
{"structure": "COC(=O)/C=C1\\S/C(=N/N=C/c2ccccc2OCc2ccccc2)NC1=O", "cell line": "Huh 5-2", "method": "luciferase / luminescence", "strain": "1b Con1 (replicon)", "value": "3.9 µM"}

Repeating the final 3 entries:

structure	setting	cell line	method	strain	value
COc1c(-c2cccc3ccccc23)cnn([C@@H]2C[C@H]3C(=O)N[C@]4(C(=O)NS(=O)(=O)C5CC5)CC4/C=C\CCCCCC[C@H](NC(=O)OC4CCCC4)C(=O)N3C2)c1=O			replicon	1b	0.0004 µM
O=C(NCc1ccccc1)c1nc2ccccc2c(=O)n1O		Ava5	replicon	1b	59.4 µM
COC(=O)/C=C1\S/C(=N/N=C/c2ccccc2OCc2ccccc2)NC1=O		Huh 5-2	luciferase / luminescence	1b Con1 (replicon)	3.9 µM